Pooled drug test results. Numbers come from NIAID ChemDB, via PubChem.

Shared fields: tests in culture; species: HIV-1; cell line: MT-4; read-out: EC50

ECn is the concentration giving n% inhibition of infection, replication or growth. Two numbers with a dash give a range or band. Blank or dashed fields: not listed here. Neighbouring rows are from separate reports.

smiles	strain or isolate	changes	method	result
COCCOC(O)c1cnc(Nc2ccc(C#N)cc2)nc1Nc1c(C)cc(/C=C/C#N)cc1C	Y181C	-	-	0.0138 µM
CC(=O)N1CCn2c(nc(C(=O)NCc3ccc(F)cc3)c(O)c2=O)C(N(C)C(=O)C(=O)N(C)C)C1	-	-	p24	<1 µM
O=C1Nc2ccc(Cl)cc2[C@@](C#CC2CC2)(C(F)(F)F)O1	RES056	-	MTT	0.2793 µM
O=C1c2c(O)c(=O)n(C3CCOC3)c(=O)n2CCN1Cc1ccc(F)cc1	-	-	p24	<10 µM
Cc1cc(/C=C/C#N)cc(C)c1Oc1nc(NC2CCN(Cc3ccc(Cl)cc3)CC2)nc2ccsc12	IIIB	NNRTI-resistant (RT Y181C)	MTT	0.0777 µM
CN1CCn2c(nc(C(=O)NCc3ccc(F)cc3)c(O)c2=O)C1(C)C	-	-	p24	<1 µM
Cc1cc(N)cc(C)c1OCC(=O)N[C@@H](Cc1ccccc1)[C@H](O)CN(CC(C)C)S(=O)(=O)c1ccc2c(c1)ncn2CCN(C)C	LAI WT	-	cytopathic effect / MTT	1.995 µM
Cc1cc(/C=C/C#N)cc(C)c1Oc1nc(NC2CCN(Cc3ccc(Br)cc3)CC2)nc2ccsc12	IIIB	NNRTI-resistant (RT Y188L)	MTT	0.287 µM
CCN1C[C@H](C)N2C(=C(O)C3C(=O)N4Cc5ccc(F)cc5OCCCCN(C)C(=O)C(=N4)C32)C1=O	LAII(IIIB)	-	-	13.87 µM
CCc1c(Cc2ccc(OC)c(OC)c2)n(COCCc2ccccc2)c(=O)[nH]c1=O	N119	Y181C	MTT	>73 µM
CC(C)CN(C[C@@H](O)[C@H](Cc1ccccc1)NC(=O)O[C@H]1CCOC1)S(=O)(=O)c1ccc2nc(N)[nH]c2c1	LAI WT	-	cytopathic effect / MTT	1 µM
CC(C)N1C[C@H](C)N2C(=C(O)C3C(=O)N4Cc5ccc(F)cc5OCCCCCNC(=O)C(=N4)C32)C1=O	LAII(IIIB)	-	-	2.81 µM
Cc1cc(C(=O)NC(C)(C)C(=O)N[C@@]23CC[C@]4(C)[C@H](CC[C@@H]5[C@@]6(C)CC[C@H](OC(=O)C7C[C@@H](C(=O)O)C7(C)C)C(C)(C)[C@@H]6CC[C@]54C)C2=C(C(C)C)C(=O)C3)c(C)o1	NL4-3	-	p24	<0.005 µM
Cc1cc(/C=C/C#N)cc(C)c1Nc1nc(Nc2ccc(C#N)cc2)ncc1C(O)C(C)C	L100I + K103N	-	-	0.468 µM
CCc1c(Cc2ccc(C)cc2)n(COCC2CC2)c(=O)[nH]c1=O	A17	K103N/Y181C	MTT	>100 µM
N#Cc1ccc(Nc2nc(Oc3c(F)cc(-c4ccc(C#N)cc4)cc3F)c3sccc3n2)cc1	IIIB	K103N	MTT	0.0087 µM
Cc1cc(/C=C/C#N)cc(C)c1Nc1nc(Nc2ccc(C#N)cc2)ncc1C(O)OCCO	PSI (IIIB)	-	-	269 µM
CC(C)CN(C[C@@H](O)[C@H](Cc1ccccc1)NC(=O)OCc1cncs1)S(=O)(=O)c1ccc2nc(N)[nH]c2c1	LAI WT	-	cytopathic effect / MTT	1.995 µM
COc1c(O)cc2ccc(=O)oc2c1-c1c(O)ccc2ccc(=O)oc12	-	EFV-resistant (K103R V179D P225H)	MTT	6.6 µM
CCOC(=O)NC(C)(C)C(=O)N[C@@]12CC[C@]3(C)[C@H](CC[C@@H]4[C@@]5(C)CC[C@H](OC(=O)C6C[C@@H](C(=O)O)C6(C)C)C(C)(C)[C@@H]5CC[C@]43C)C1=C(C(C)C)C(=O)C2	NL4-3	-	p24	0.00501–0.01 µM
CCN1C[C@H](C)N2C(=C(O)C3C(=O)N4Cc5ccc(F)cc5OCCCC[C@H](C)S(=O)(=O)N(C)C(=N4)C32)C1=O	LAII(IIIB)	-	-	2.24 µM
Cc1cc(/C=C/C#N)cc(C)c1Oc1nc(NC2CCN(Cc3ccncc3)CC2)nc2ccsc12	IIIB	NNRTI-resistant (RT E138K)	MTT	0.00853 µM
Cc1cn([C@H]2C=C[C@@H](CO)O2)c(=O)[nH]c1=O	RD 22-RT-K65R M202I Recombinant	-	cytopathic effect / MTT	0.28 µM
Cc1cc(CNC(=O)c2nc3n(c(=O)c2O)CCN(CC2CC2)CC3N(C)C(=O)C(=O)N(C)C)ccc1F	-	-	p24	<1 µM
Cc1cc(/C=C/C#N)cc(C)c1Nc1nc(Nc2ccc(C#N)cc2)ncc1C(O)n1ccnc1	L100I + K103N	-	-	0.0389 µM
CC(C)n1c(=O)c(O)c2n(c1=O)CCN(Cc1ccc(F)cc1Cl)C2=O	-	-	p24	<10 µM
N#Cc1ccc(Nc2nc(Oc3ccc(-c4ccc(C#N)cc4)c(F)c3F)c3sccc3n2)cc1	IIIB	L100I	MTT	0.052 µM
Cc1cc(/C=C/C#N)cc(C)c1Oc1nc(NC2CCN(Cc3ccc([N+](=O)[O-])cc3)CC2)nc2ccsc12	IIIB	NNRTI-resistant (RT Y181C)	MTT	0.0307 µM
CCN1C[C@H](C)N2C(=C(O)C3C(=O)N4Cc5cc(Cl)c(F)cc5OCCCCS(=O)(=O)N(C)C(=N4)C32)C1=O	LAII(IIIB)	-	-	0.6 µM
COc1ccc(C(=O)Nc2nc3ccc(S(=O)(=O)N(CC(C)C)C[C@@H](O)[C@H](Cc4ccccc4)NC(=O)COc4c(C)cccc4C)cc3[nH]2)cc1	LAI WT	-	cytopathic effect / MTT	0.126 µM
O=C1c2c(O)c(=O)n(C3CCCCC3)c(=O)n2CCN1Cc1ccc(F)cc1	-	-	p24	<10 µM
Cc1cn([C@H]2C[C@H](N=[N+]=[N-])[C@@H](CO)O2)c(=O)[nH]c1=O	-	N119 (Y1811C)	MTT	0.02 µM
COC(O)c1cnc(Nc2ccc(C#N)cc2)nc1Nc1c(C)cc(/C=C/C#N)cc1C	IIIB	-	-	0.00331 µM
Cc1cc(-c2ccc(C#N)cc2)cc(Cl)c1Oc1nc(Nc2ccc(C#N)cc2)nc2ccsc12	IIIB	K103N	MTT	0.0304 µM
CC(C)C1=C2[C@H]3CC[C@@H]4[C@@]5(C)CC[C@H](OC(=O)C6C[C@@H](C(=O)O)C6(C)C)C(C)(C)[C@@H]5CC[C@@]4(C)[C@]3(C)CC[C@@]2(NC(=O)C(C)(C)NC(=O)c2ccc(C(F)(F)F)cc2)CC1=O	NL4-3	V7A	p24	<0.01 µM
Cc1cc(/C=C/C#N)cc(C)c1Oc1nc(NC2CCN(Cc3cccc(Cl)c3)CC2)nc2ccsc12	IIIB	NNRTI-resistant (RT Y188L)	MTT	0.17 µM
CCOCn1c(Cc2ccccc2)c(C(C)C)c(=O)[nH]c1=O	EFVR	K103R/V179D/P225H	MTT	>100 µM
CC(C)C1=C2[C@H]3CC[C@@H]4[C@@]5(C)CC[C@H](OC(=O)C6C[C@@H](C(=O)O)C6(C)C)C(C)(C)[C@@H]5CC[C@@]4(C)[C@]3(C)CC[C@@]2(NC(=O)C(C)(C)NC(=O)c2ccc(N3CCOCC3)cc2)CC1=O	NL4-3	-	p24	<0.005 µM
O=C1c2c(O)c(=O)n(C3CCS(=O)(=O)c4ccccc43)c(=O)n2CCN1Cc1ccc(F)cc1	-	-	p24	<10 µM
CCOCn1c(Cc2ccc(C)cc2)c(CC)c(=O)[nH]c1=O	A17	K103N/Y181C	MTT	>100 µM
CC(=O)NC1CN(C)CCn2c1nc(C(=O)NCc1ccc(F)cc1)c(O)c2=O	-	-	p24	<50 µM
CC(C)C1=C2[C@H]3CC[C@@H]4[C@@]5(C)CC[C@H](OC(=O)C6C[C@@H](C(=O)O)C6(C)C)C(C)(C)[C@@H]5CC[C@@]4(C)[C@]3(C)CC[C@@]2(NC(=O)C(C)(C)NC(=O)c2nccn2C)CC1=O	NL4-3	V7A	p24	>0.05 µM
CCc1c(Cc2cc(C)cc(C)c2)n(COCCCc2ccccc2)c(=O)[nH]c1=O	N119	Y181C	MTT	8.8 µM
Cc1cc(/C=C/C#N)cc(C)c1Nc1nc(Nc2ccc(C#N)cc2)ncc1C(O)c1ccccn1	PSI (IIIB)	-	-	234 µM
Cn1nncc1CN1CCn2c(nc(C(=O)NCc3ccc(F)cc3)c(O)c2=O)C1(C)C	-	-	p24	<1 µM
CNC(O)c1cnc(Nc2ccc(C#N)cc2)nc1Nc1c(C)cc(/C=C/C#N)cc1C	Y181C	-	-	0.01995 µM
O=C1c2c(O)c(=O)n([C@@H]3C[C@H]3c3ccccc3)c(=O)n2CCN1Cc1ccc(F)cc1	-	-	p24	<10 µM
Cc1cccc(NC(=O)NC(C)(C)C(=O)N[C@@]23CC[C@]4(C)[C@H](CC[C@@H]5[C@@]6(C)CC[C@H](OC(=O)C7C[C@@H](C(=O)O)C7(C)C)C(C)(C)[C@@H]6CC[C@]54C)C2=C(C(C)C)C(=O)C3)n1	NL4-3	V7A	p24	>0.05 µM
Cc1cc(C#N)cc(C)c1Oc1nc(NC2CCC(NCc3ccc(F)cc3)CC2)nc2ccsc12	RES056	-	MTT	>2.77 µM
O=C1c2c(O)c(=O)n(C3CCCCCC3)c(=O)n2CCN1Cc1ccc(F)cc1	-	-	p24	<10 µM
Cc1cc(Oc2nc(Nc3ccc(C#N)cc3)nc3ccsc23)ccc1-c1ccc(C#N)cc1	IIIB	-	MTT	0.0588 µM
CCC(O)c1cnc(Nc2ccc(C#N)cc2)nc1Nc1c(C)cc(/C=C/C#N)cc1C	L100I + K103N	-	-	0.0309 µM
CCN1C[C@H](C)N2C(=C(O)C3C(=O)N4Cc5ccc(F)cc5COCCCCCS(=O)(=O)N(C)C(=N4)C32)C1=O	LAII(IIIB)	-	-	2.53 µM

Repeating the first 6 entries:

{"smiles": "COCCOC(O)c1cnc(Nc2ccc(C#N)cc2)nc1Nc1c(C)cc(/C=C/C#N)cc1C", "strain or isolate": "Y181C", "result": "0.0138 µM"}
{"smiles": "CC(=O)N1CCn2c(nc(C(=O)NCc3ccc(F)cc3)c(O)c2=O)C(N(C)C(=O)C(=O)N(C)C)C1", "method": "p24", "result": "<1 µM"}
{"smiles": "O=C1Nc2ccc(Cl)cc2[C@@](C#CC2CC2)(C(F)(F)F)O1", "strain or isolate": "RES056", "method": "MTT", "result": "0.2793 µM"}
{"smiles": "O=C1c2c(O)c(=O)n(C3CCOC3)c(=O)n2CCN1Cc1ccc(F)cc1", "method": "p24", "result": "<10 µM"}
{"smiles": "Cc1cc(/C=C/C#N)cc(C)c1Oc1nc(NC2CCN(Cc3ccc(Cl)cc3)CC2)nc2ccsc12", "strain or isolate": "IIIB", "changes": "NNRTI-resistant (RT Y181C)", "method": "MTT", "result": "0.0777 µM"}
{"smiles": "CN1CCn2c(nc(C(=O)NCc3ccc(F)cc3)c(O)c2=O)C1(C)C", "method": "p24", "result": "<1 µM"}